Primary screen of a compound library

The filed quantity is “Percent Effect” (%).
The controls that fix the scale are not given in the record; negative values are as filed.
This is part of a subset picked to be rich in strong results.
Two or more numbers in one place are separate tests of the same structure; such repeats can differ widely.
A dash means the value is not listed here; it may have been measured.

A: 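Growth of Mycobacterium tuberculosis over 3 days (7H9 medium with glucose and tyloxapol); the read-out is not stated. Concentration: 50 µM. Higher reads as more growth inhibition (inferred: compounds with an IC50 in retests scored well above the rest). Size under these conditions: about 69,000 compounds, about 760 of them at 50% or above in at least one test.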
B: 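Growth of Mycobacterium tuberculosis over 4 days (cholesterol / DPPC medium with tyloxapol); the read-out is not stated. Tested at 50 µM. Higher reads as more growth inhibition (inferred: compounds with an IC50 in retests scored well above the rest). Size under these conditions: about 69,000 compounds, about 370 of them at 50% or above in at least one test.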

| Compound | A | B |
|---|---|---|
| `CCOC(=O)c1cnn(-c2cc(C)ccn2)c1N` | 11.7% & 30.21% | -14.23% |
| `O=C(O)C(F)(F)F.O=C(O)C(F)(F)F.[H][C@@]12CN(Cc3ccccn3)C[C@]1([H])C(=O)N(c1ccsc1)C2` | 3.415% | - |
| `Cc1nc(N)ncc1C(=O)N1CCCC(CCc2ccc(F)cc2)C1` (stereo not drawn) | -0.4973% & -9.165% | 7.266% |
| `OC(CN1CCCCCCC1)c1ccc(F)cc1` (stereo not drawn) | 0.9823% | - |
| `Cc1cccc(CNC(Cc2ccsc2)c2nccs2)n1` (stereo not drawn) | 37.91% | - |
| `COc1ccc(CNC(Cc2ccsc2)c2ccc(C)cn2)c(OC)c1` (stereo not drawn) | 60.99% | - |
| `CN(C)c1nc(N)nc(CN2CCCC2c2cccs2)n1` (stereo not drawn) | 0.4608% | - |
| `CC(Nc1nc(-c2ccccc2)nc2c1CCNCC2)c1nccs1` (stereo not drawn) | 41.12% | - |
| `COc1ccc(OC)c(C(C)Nc2ncnc3c2NC(=O)CN3)c1` (stereo not drawn) | 19.71% | - |
| `CC(Cn1cccn1)NC(=O)Nc1ccccn1` (stereo not drawn) | -8.15% | -19.58% |
| `CNS(=O)(=O)Cc1ccc(CNC(=O)c2ccccn2)cc1` | 17.41% | - |
| `CCOCCC(=O)NCC(C)c1ccsc1` (stereo not drawn) | 4.5% & 9.216% | 8.359% |
| `COc1cc(C(=O)NCCc2cccc(C)c2)on1` | 41.35% | 36.63% |
| `CC1C(=O)NCCN1CCOc1ccc(C#N)cc1` (stereo not drawn) | 5.915% | 5.933% |
| `CC(C)(C)CCS(=O)(=O)NCCc1csc(N2CCCC2)n1` | -6.695% | - |
| `O=C(NCc1ccncc1)c1ccc(Cl)cc1F` | 16.94% | - |
| `CCn1nc(C)c2nc(C)nc(NCCc3ccc(C)cc3)c21` | 30.52% & 53.23% | - |
| `CCCC(=O)NS(=O)(=O)c1ccc(C#N)c(C(F)(F)F)c1` | -5.236% | - |
| `COc1cc(C(=O)Nc2nc(C)no2)cc(Cl)c1OC` | 58.42% | - |
| `Cc1noc(C)c1CCC(=O)N1CCn2cccc2C1C` (stereo not drawn) | 1.714% & 59.61% | - |
| `CCc1c(C)n(CCOC)c2nc3ccccc3n2c1=O` | 3.635% & -0.4743% | - |
| `COc1ccc(CN2CCOC[C@H](OCCC(C)C)C2)cc1` | 15.73% & 57.31% | - |
| `c1ccc(C2CN(C3CC3)CC3(CCN(Cc4ncc[nH]4)CC3)C2)cc1` (stereo not drawn) | 9.776% & 7.722% | -6.298% |
| `CC(C)NC(=O)N1CCC(n2ccc(C(F)(F)F)n2)CC1` | -0.6949% & -4.02% | - |
| `CCc1c(C(=O)NCC(=O)OCC2CC2)cnn1-c1ccc(C)cc1` | 71.1% | 58.4% |
| `O=c1n(CCSCCOc2ccc(Br)cc2)nc2ccccn12` | - | -10.6% |
| `COC(=O)c1cc(NCC(=O)NC(N)=O)cc(C(F)(F)F)c1` | -11.66% | -9.729% |
| `CCN1CC(COC(=O)c2ccc(Br)cc2F)CC1=O` (stereo not drawn) | 55% | - |
| `CC(C)OCCCNC(=O)CS(=O)(=O)Cc1cccc(Cl)c1` | 9.604% | -7.288% |
| `O=C(c1cc(-c2cccs2)cs1)N1CCOCC1` | 31.8% | - |
| `Cn1nccc1C(=O)N1CCC(n2cc(-c3ccsc3)nn2)CC1` | - | 0.1361% |
| `O=C(NC1CC1)c1ccnc(N2CCOC(c3ccc(Cl)c(Cl)c3)C2)c1` (stereo not drawn) | 54.77% | - |
| `COc1ccc(NC(=O)Cn2nc(C)c(C)cc2=O)cc1` | 13.1% | - |
| `Cc1ccc(-c2noc(CN3CC(n4cc(C)cn4)C3)n2)cc1` | 79.83% | 57.51% |
| `COCCN1CCN(CCS(=O)(=O)c2cccc(OC)c2)CC1` | 23.23% | 7.449% |
| `Cc1ccc(C(CNCc2c[nH]nc2C)N(C)C)cc1.Cl` (stereo not drawn) | 6.997% & 2.751% | - |
| `O=C(Cn1cnnn1)NCC1(O)CCCc2ccccc21` (stereo not drawn) | -37.89% | - |
| `CC(C)Oc1ccc(CN2CCN3CCN(C)CC3C2)cc1CO` (stereo not drawn) | -4.088% & -1.347% | - |
| `CNC(=O)CS(=O)(=O)NC1CCC(C)CC1` (stereo not drawn) | 32.81% | - |
| `CN(Cc1cccc(Cl)c1)Cc1nnsc1Cl` | -8.157% | - |
| `CCn1c(C(=O)N2CCN(C(=O)NC(C)C)CC2)cc2ccccc21` | 4.215% | - |
| `Cc1cccc(C)c1NC(=O)CC(CN1CCN(C)CC1)C(=O)O` (stereo not drawn) | 86.76% & 77.94% | - |
| `CN(C)c1ncnc2c1CCN(c1cccc(F)c1)CC2` | -5.34% & 61.27% | - |
| `Cc1cc(N(C)Cc2cc(C)on2)n2nc(C)c(C)c2n1` | 76.73% & 72% | 66.13% |
| `Cc1nc(C2CCCN2C(=O)c2cc3c(s2)CCC3)no1` (stereo not drawn) | 1.535% & -37.99% | - |
| `COc1cc(C)c(-c2ccc(F)c3c2OC(CN)C3)cc1C` (stereo not drawn) | - | 51.09% & 46.89% |
| `COc1ccc(-c2nc(CN3CCN(CCO)CC3)co2)cc1` | -3.717% | -2.209% |
| `NC1CCN(S(=O)(=O)c2ccc(C(=O)N3CCSCC3)cc2)C1` (stereo not drawn) | 14.9% & -6.974% | - |
| `Cc1nc(N)nc(N2CCOc3ccc(CO)cc3C2)c1C` | 5.613% & 23.45% | - |

3 of the entries, repeated:

{"compound": "Cc1cccc(CNC(Cc2ccsc2)c2nccs2)n1", "stereo": "stereo not drawn", "A": 37.91}
{"compound": "CN(C)c1ncnc2c1CCN(c1cccc(F)c1)CC2", "A": "-5.34 & 61.27"}
{"compound": "CCN1CC(COC(=O)c2ccc(Br)cc2F)CC1=O", "stereo": "stereo not drawn", "A": 55}

Measurements from “University of Dundee, Small-Polar-MMV Screening Library” (2021), ChEMBL document CHEMBL3988442.